Results of unrelated studies side by side (data: NIAID ChemDB).

Common to all: whole-cell or culture tests; agent: HIV-2; endpoint: inhibition

An empty or dashed field is not shown.

| structure | strain | cells | method | dose | value |
|---|---|---|---|---|---|
| COc1ccc(CN[C@@H](C(=O)N[C@H]2c3ccccc3C[C@H]2O)[C@H](O)[C@H](Cc2ccccc2)NC(=O)[C@@H](NC(=O)OCc2ccccc2)C(C)(C)C)cc1 | EHO | MT-4 | p24 | 0.66 µM | 90% |
| [B-]P(=O)([O-])CC[C@H]1O[C@@H](n2cc(C)c(=O)[nH]c2=O)C[C@@H]1N=[N+]=[N-] | ROD | CEM | syncytia | 400 µM | 0% |
| O=C1N(Cc2ccc(CO)cc2)[C@H](Cc2ccccc2)[C@H](O)[C@@H](O)[C@@H](Cc2ccccc2)N1Cc1ccc(CO)cc1 | ROD | MT-2 |  | 0.05 µM | 90% |
| Nc1ncnc2c1ncn2[C@H]1CC[C@@H](CO)O1 | LAV-2 | CEM | virus yield | 1 µM | 90% |
| CC(C)[C@H](NC(=O)c1ccc2ccccc2n1)C(=O)N[C@@H](Cc1ccccc1)[C@H](O)CN1CC[C@@H](OCc2ccncc2)C[C@H]1C(=O)NC(C)(C)C | ROD | C8166 | p24 | 0.152 µM | 90% |
| CC1(C)[C@@H](O[C@H]2O[C@H](C(=O)O)[C@@H](O)[C@H](O)[C@H]2O[C@@H]2O[C@H](C(=O)O)[C@@H](O)[C@H](O)[C@H]2O)CC[C@]2(C)[C@H]3C(=O)C=C4[C@@H]5C[C@@](C)(C(=O)O)CC[C@]5(C)CC[C@@]4(C)[C@]3(C)CC[C@@H]12 | rot | MT-4 | ELISA | 1000 µg/mL | 79.7% |
| CO[C@H]1[C@@H](O)[C@H](n2ccc(N)nc2=O)[C@@H](O)[C@H](O)[C@@H]1O.O=C(O)/C=C/C(=O)O |  | MT-4 | cytopathic effect / MTT | 10 µg/mL | 38.1% |
| CSC[C@H](NC(=O)COc1cccc2cnccc12)C(=O)N[C@@H](Cc1ccccc1)[C@H](O)C(=O)N1CSC(C)(C)[C@H]1C(=O)NC(C)(C)C | ROD | ATH8 | trypan blue | 0.4 µM | 90% |
| CO[C@@H]1[C@@H](O)[C@@H](O)[C@H](O)[C@H](O)[C@H]1n1cnc2c(N)ncnc21 |  | MT-4 | cytopathic effect / MTT | 10 µg/mL | 44.5% |
| Cc1cn([C@H]2C[C@H](N=[N+]=[N-])[C@@H](CO)O2)c(=O)[nH]c1=O | MS | PBMC | RT activity | 2.5 µg/mL | 90% |
| O=C(NCc1ccc(F)cc1)c1nc(N2CCCCS2(=O)=O)c2cccnc2c1O |  |  |  | 0.008 µM | 95% |
| CCCC(=O)O[C@H]1CN2CC[C@H](O)[C@@H]2[C@@H](O)[C@@H]1O | ROD | H9 |  | 40 µM | 99% |
| CO[C@@H]1[C@@H](O)[C@@H](O)[C@H](O)[C@H](O)[C@H]1n1ccc(N)nc1=O |  | MT-4 | cytopathic effect / MTT | 10 µg/mL | 52.8% |
| O=C1N(Cc2ccc(CO)cc2)[C@H](Cc2ccccc2)[C@H](O)[C@@H](O)[C@@H](Cc2ccccc2)N1Cc1ccc(CO)cc1 | ROD | MT-2 | virus yield | 0.05 µM | 90% |

The first 2 rows once more:

structure | strain | cells | method | dose | value
COc1ccc(CN[C@@H](C(=O)N[C@H]2c3ccccc3C[C@H]2O)[C@H](O)[C@H](Cc2ccccc2)NC(=O)[C@@H](NC(=O)OCc2ccccc2)C(C)(C)C)cc1 | EHO | MT-4 | p24 | 0.66 µM | 90%
[B-]P(=O)([O-])CC[C@H]1O[C@@H](n2cc(C)c(=O)[nH]c2=O)C[C@@H]1N=[N+]=[N-] | ROD | CEM | syncytia | 400 µM | 0%

Inhibition is in % at the dose shown (toxicity tests: loss of growth or viability). Conditions beyond the fields shown may differ between rows.